Test results reported in PMC10221217 (Viruses, 2023).

Protein sequences, listed by entry. Tags and fused reporters are not part of them.
UniProt P61073, whole entry: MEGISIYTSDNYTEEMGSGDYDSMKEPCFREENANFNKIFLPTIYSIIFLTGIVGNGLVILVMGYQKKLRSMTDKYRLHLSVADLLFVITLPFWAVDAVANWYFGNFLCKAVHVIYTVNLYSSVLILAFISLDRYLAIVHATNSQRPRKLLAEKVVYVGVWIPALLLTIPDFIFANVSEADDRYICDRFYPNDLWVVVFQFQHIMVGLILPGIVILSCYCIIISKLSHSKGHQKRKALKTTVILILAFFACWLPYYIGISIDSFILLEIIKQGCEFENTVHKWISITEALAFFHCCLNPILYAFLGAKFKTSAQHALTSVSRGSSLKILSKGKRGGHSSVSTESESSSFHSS

Molecular target: T1, CXCR4 (Homo sapiens, UniProt P61073)
T1 construct: expressed in transfected cells
Assay: CXCR4 competitive binding assay (anti-CXCR4 mAb 12G5)

CC[C@@H](C)[C@H]1NC(=O)[C@@H](CO)NC(=O)[C@@H](CC(C)C)NC(=O)[C@@H](CCCNC(=N)N)NC(=O)[C@@H](CCCNC(=N)N)NC(=O)[C@@H](CCCNC(=N)N)NC(=O)[C@@H]([C@H](C)O)NC(=O)[C@@H](CC(N)=O)NC(=O)[C@@H](CC(N)=O)NC(=O)[C@@H](CC(N)=O)NC(=O)[C@H]2CCCN2C(=O)[C@@H](CCCNC(=N)N)NC(=O)[C@@H]([C@H](C)O)NC(=O)[C@H](NC(=O)[C@@H](CC(N)=O)NC(=O)[C@H](NC(=O)[C@H](NC(=O)[C@H](NC(=O)[C@@H](CO)NC(=O)[C@H](N)CCC(=O)O)C(C)C)C(C)C)[C@H](C)CC)CSSC[C@H](C(=O)N[C@H](CC(N)=O)C(=O)N[C@@H](C(=O)N[C@H](CO)C(N)=O)[C@H](C)CC)NC(=O)[C@@H](Cc2c[nH]cn2)NC(=O)[C@@H](C)NC(=O)[C@@H](CCC(N)=O)NC(=O)[C@@H](CCCNC(=N)N)NC(=O)[C@@H]([C@H](C)CC)NC(=O)[C@@H](CC(=O)O)NC(=O)CNC(=O)[C@@H]([C@H](C)CC)NC(=O)[C@@H]([C@H](C)CC)NC(=O)[C@@H](CC(N)=O)NC(=O)[C@@H](CCCNC(=N)N)NC(=O)[C@@H](CCCNC(=N)N)NC(=O)[C@@H](C)NC(=O)[C@@H](Cc2ccc(O)cc2)NC(=O)[C@@H](Cc2ccccc2)NC(=O)[C@@H](C)NC(=O)[C@@H](CCCNC(=N)N)NC(=O)CNC(=O)[C@H]2CCCN2C(=O)CNC1=O [D-V3 loop peptide]
comparison of CXCR4 binding of L- and D-peptide (in words) (anti-CXCR4 antibody 12G5 competitive binding): comparable binding recognition to the CXCR4 receptor | CXCR4 selectivity over CCR5 (in words) (concluded from CXCR4 and CCR5 competitive binding): CXCR4 binding was selective
